{"source": "BindingDB's records for doi:10.1021/acs.jmedchem.5b01461", "about": "(University of Bonn, 2016)", "biological_target": "Replicase polyprotein 1ab (Severe acute respiratory syndrome coronavirus, UniProt P0C6X7)", "data": [{"smiles": "CC(C)(C)NC(=O)C(c1cccnc1)N(C(=O)c1c[nH]cn1)c1ccc(C(C)(C)C)cc1", "note": "(stereo unspecified) [med.21724, Compound 125]", "values": [{"measurement": "IC50", "value": 6, "unit": "µM"}]}]}
